1 sequence from paper PMC13098282 can be followed below.

For at least one entry, the source does not settle the construct or the ends of the probe. A negative result means that nothing was seen under these conditions. Protein sequences can lack the tags named with them.

This series deals with T1, Crp2 (Mycobacterium smegmatis) (UniProt A0R5H1).
T1 sequence (looked up, limits assumed): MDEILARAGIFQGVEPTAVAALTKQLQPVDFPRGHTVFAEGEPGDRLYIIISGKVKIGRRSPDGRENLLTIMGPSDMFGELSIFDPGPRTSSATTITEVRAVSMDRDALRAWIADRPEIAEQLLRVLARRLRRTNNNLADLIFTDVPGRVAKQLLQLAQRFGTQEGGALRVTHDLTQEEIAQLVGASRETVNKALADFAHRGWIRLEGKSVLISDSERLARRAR
The experiment in a line: EMSA. The settings on record: 20 mM HEPES pH 7.6, 1 mM EDTA, 10 mM (NH4)2SO4, 1 mM DTT, 0.2% Tween 20, 30 mM KCl, 310 fmol DNA in 20 uL, 0/25/75 ng protein (Fig S7: 1 or 3 uM), 15 min, recombinant protein, label: DIG (kit, stated as 5' end), probe letters rebuilt from the primers and the genome. (In general: A gel shift assay detects complexes by their altered migration in electrophoresis.)

“GACCGGCGAGATGTCTGGAAGTTCGTCGATCGCATTCTGACCGGCACTGTGACCGTTGCTGGCCATTCCATCCTCCCGCTCGGAGTTTCGGCGACGCGGCAAACATATCCTCGCCTATGCGCGGATGCCTATCGCTTTCGCGCAATTCCTGTCCGGATTGCGCAAAGATAGGTGCTCTCATGCGCGTCTGACGATCAGGAGGGTTGCGGTGCGGGACCGAAATCCGTTATCGCTGACCAAAGTTAGGCTTTCCTTAGCTCGCGTATCAGGCCGGGCGTTGCTGGGGGTTCCCGGATGTCACGGCTGACCCGGCTCGGGTTCATCGACATCCGCCGCACCAGCGATCCCGTGCGGCGAAAGGTGCGCAGCCGCGGCGTCCCGCCCGCGCTGGCCGATCACGAGATCTTCTACACCGAGGACGTCCGCGAGGCCGCGCGTCTGGTCG (double strand) [Phuc (huc promoter)]”: the binding result by setting is: (50 mM cAMP) “no binding”; (no cAMP) “no binding”.
